According to patent US20250388535A1, “SULFONATED AND SULFATED ARYL-ALKYL COMPOUNDS USEFUL AS SURFACTANTS” (SPECIALTY OPERATIONS FRANCE, priority 2022, published 2025):

Test system: municipal activated sludge
Test: Biodegradability assessment using the 301 F OECD protocol (standard protocol)
Details: for % biodeg (28 d) (Standard protocol): 28 days, 20±2° C., closed BOD flask, without emulsion; for Lag phase: period preceding the beginning of mineralization of the test substance, protocol not given

Compound | % biodeg (28 d) (Standard protocol) [%] | Lag phase [days]
CCCCCCCCCCCCCCCC(OS(=O)(=O)[O-])c1ccccc1.[Na+] (stereo not drawn) [PAAS-C16] | 55 | 3
CCCCCCCCCCCCCCCCC(C(=O)c1ccccc1)S(=O)(=O)[O-].[Na+] (stereo not drawn) [PAKS-C18, reference compound] | 52 | 8
CCCCCCCCCCCCCCCCC(C(O)c1ccccc1)S(=O)(=O)[O-].[Na+] (stereo not drawn) [PAS-C18] | 57 | 3
